Assay results published in patent US5547861.
For part of these data: No signal at the amounts used counts as a negative. For at least one entry, the source does not settle the construct or the ends of the probe. For part of these data: Protein sequences can lack the tags named with them.

Protein sequences, listed by entry. Tags and fused reporters are not part of them. Residues count along the entry.
UniProt P00642, 2-277: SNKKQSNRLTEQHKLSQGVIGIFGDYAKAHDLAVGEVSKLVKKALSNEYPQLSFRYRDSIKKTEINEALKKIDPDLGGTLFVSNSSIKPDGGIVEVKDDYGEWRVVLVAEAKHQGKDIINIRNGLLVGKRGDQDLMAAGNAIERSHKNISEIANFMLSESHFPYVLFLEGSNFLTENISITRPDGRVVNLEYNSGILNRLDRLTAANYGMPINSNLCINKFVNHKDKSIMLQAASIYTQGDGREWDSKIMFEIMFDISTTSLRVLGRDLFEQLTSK

Legend:
[1] = molecular target: EcoRI restriction endonuclease (UniProt P00642); assay: enzyme reaction in vitro; conditions: purified native protein, label: 5'-32P
[2] = molecular target: T1, HincII restriction endonuclease (UniProt P17743); assay: enzyme reaction in vitro; conditions: dATPalphaS (phosphorothioate) and dUTP incorporated in polymerase-extended portions; 32P 13-mer cleavage product seen only with M.tb target; SDA buffer, 7 mM MgCl2, 41 C; purified native protein; protein details: New England Biolabs; label: 5'-32P
T1 sequence (looked up, limits assumed): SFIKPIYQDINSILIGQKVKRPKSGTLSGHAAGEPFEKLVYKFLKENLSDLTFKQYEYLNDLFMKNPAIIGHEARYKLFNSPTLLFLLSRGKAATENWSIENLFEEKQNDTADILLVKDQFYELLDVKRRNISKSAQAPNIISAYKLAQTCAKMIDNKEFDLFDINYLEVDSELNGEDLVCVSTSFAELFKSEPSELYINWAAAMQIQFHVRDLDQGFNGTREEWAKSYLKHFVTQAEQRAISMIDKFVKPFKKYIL

“GGAATTCATCCGTATGGTGGATAACGTCTTTCA [EcoRI-site signal primer, single-stranded 33-mer]” was tested, and the “activity on this sequence” value ([1]; no dinucleotide product without target DNA, filtrate at background, single-stranded DNA) was “not active”.
In the case of “GGAATTCATCCGTATGGTGGATAACGTCTTTCA (double strand) [EcoRI-site signal primer extended to double-stranded 70-mer]”, the “activity on this sequence” value ([1]; dATPalphaS (phosphorothioate) and dUTP incorporated in polymerase-extended portions, 32P dinucleotide released, seen only with M.tb target, 37 C 30 min after SDA) is reported as “active”.
With “GTACGTCTATGTCAACATCCGTATGGTGGATAACGTCTTTCA (double strand) [HincII-site signal primer extended to double-stranded 79-mer]” the “activity on this sequence” value [2] was “active”.
